Results deposited as PubChem BioAssay AID1259414 (Drosophila RNAi Screening Center, 2018)

Purpose: 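Fly genes that alter Wolbachia amount inside host cells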 (primary screen)
System: Drosophila JW18 cells infected with Wolbachia
Reagent: long dsRNA against Drosophila genes, 0.25 µg dsRNA per well of a 384-well plate
Duration: 5 days
Challenge: cells persistently infected with Wolbachia before knock-down; no added drug
Measurement: 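Automated imaging of bacterial rRNA staining divided by host cell count, reported as plate-normalised robust z-score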
Scale: Wolbachia per cell robust z: higher = more Wolbachia per host cell than the plate typical
Rule for the call: 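Active if absolute robust z reaches 1.5 in two or more of three replicates, leaving out multi- or no-target dsRNAs, genes unexpressed in JW18 and A1 wells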
The screen tested about 24,000 reagents; below is a random part of those with a known target gene and a result. Of all reagents, about 1,210 (5%) got an active call. 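Inactive calls also include excluded dsRNAs with several or no targets, genes unexpressed in JW18, and well A1, regardless of score.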 Reagent sequences are not shown.

gene | DRSC id | Wolbachia per cell robust z, rep 1 | Wolbachia per cell robust z, rep 2 | Wolbachia per cell robust z, rep 3 | Call
CG2065 | DRSC06813 | 0.78 | 0.424 | 0.554 | inactive
CG2065 | DRSC21328 | -1.81 | 0.0387 | -0.734 | inactive
CG2065 | DRSC29164 | -1.48 | 0.114 | -0.398 | inactive
CG4382 | DRSC02743 | -0.734 | -1.32 | -1.28 | inactive
CG4382 | DRSC29493 | -1.17 | -0.832 | -1.29 | inactive
CG14304 | DRSC25016 | 0.522 | 0.936 | 0.745 | inactive
CG7551 | DRSC10876 | 1.04 | 0.0121 | 0.0269 | inactive
Uros2 | DRSC16505 | 1.24 | -4.82 | 1.15 | inactive
CG10348 | DRSC23233 | 0.76 | 0.704 | -0.735 | inactive
CG10348 | DRSC30046 | -0.799 | -0.194 | -0.96 | inactive
CG8188 | DRSC20090 | -0.114 | 0.318 | -0.0921 | inactive
CG8188 | DRSC27721 | 0.896 | 0.863 | 0.641 | inactive
ksh | DRSC19554 | 1 | 0.87 | 0.943 | inactive
ksh | DRSC28147 | -0.446 | 0.204 | -0.857 | inactive
sut1 | DRSC07700 | 0.0717 | 0.213 | 0.392 | inactive
mei-9 | DRSC18792 | 0.0758 | -0.177 | -2.61 | inactive
CG13676 | DRSC10035 | -0.189 | 0.247 | 0.162 | inactive
Tsp74F | DRSC10508 | -0.159 | 1.14 | -0.534 | inactive
Art2 | DRSC00627 | -3.34 | 0.323 | -10.5 | inactive
CG5254 | DRSC18611 | -0.259 | -0.349 | 0.24 | inactive
RpS5b | DRSC16173 | -0.586 | -0.353 | 0.843 | inactive
lbl | DRSC16986 | 0.29 | -0.411 | 0.477 | inactive
Taf8 | DRSC20363 | -0.0321 | 0.207 | 0.215 | inactive
tey | DRSC11042 | 0.417 | -5.26 | 0.809 | inactive
tey | DRSC21709 | -1.68 | -0.647 | -0.773 | inactive
tey | DRSC26114 | -2.72 | -0.78 | -0.137 | inactive
CG14561 | DRSC11722 | 0.133 | -0.797 | 0.223 | inactive
CG31087 | DRSC14253 | -4.3 | -1.68 | -1.95 | inactive
EloA | DRSC16109 | 0.531 | -1.22 | -0.585 | inactive
EloA | DRSC23920 | 0.371 | 0.179 | 0.406 | inactive
Plod | DRSC10601 | -3.71 | -0.46 | -0.63 | inactive
Plod | DRSC10602 | 1.29 | 0.629 | 1.07 | inactive
p53 | DRSC17024 | 0.21 | 0.975 | -0.247 | inactive
p53 | DRSC40777 | 0.295 | 0.195 | 0.0508 | inactive
CG7271 | DRSC22561 | 0.766 | 0.0924 | 0.326 | inactive
CG3558 | DRSC00615 | 0.285 | 1.35 | 0.903 | inactive
CG3558 | DRSC29745 | -1.54 | 0.279 | -0.25 | inactive
Caf1-55 | DRSC16596 | 3.51 | 1.86 | 3.03 | active
Caf1-55 | DRSC40758 | 1.06 | 1.62 | 2.07 | active
CG2991 | DRSC00559 | -5.87 | -1.09 | -0.822 | inactive
CG2991 | DRSC26300 | -0.00204 | 0.42 | 0.0744 | inactive
Spec2 | DRSC12258 | 0.0765 | 0.0401 | -0.839 | inactive
Spec2 | DRSC22886 | -0.435 | -1.12 | 0.0594 | inactive
CG40191 | DRSC21041 | -1.74 | -0.148 | -0.303 | inactive
CG32683 | DRSC17990 | -0.0747 | 0.171 | -5.53 | inactive
CG32683 | DRSC18232 | -1.19 | -0.75 | 0.304 | inactive
CG32683 | DRSC18233 | 0.011 | 0.461 | -0.284 | inactive
CG32683 | DRSC29475 | 0.511 | 0.435 | -0.27 | inactive
CG14834 | DRSC10204 | 0.278 | 0.454 | 0.994 | inactive
CG14834 | DRSC28202 | -0.399 | -0.694 | -1.83 | inactive
CG42855 | DRSC06161 | -2.49 | 0.0443 | -2.15 | active
Ggamma30A | DRSC02715 | 0.156 | 0.367 | 0.18 | inactive
Ggamma30A | DRSC03331 | -3.41 | -0.853 | -0.71 | inactive
CG4229 | DRSC10407 | 0.0667 | -0.694 | -1.95 | inactive
Rgk3 | DRSC04250 | -0.367 | -0.278 | 0.0953 | inactive
Rgk3 | DRSC04254 | -1 | -0.00184 | 0.17 | inactive
Rgk3 | DRSC04255 | -1.32 | -2.71 | -1.17 | inactive
Rgk3 | DRSC28131 | -0.2 | -0.722 | -0.203 | inactive
CG8237 | DRSC07119 | 0.379 | -0.127 | -0.907 | inactive
CG8237 | DRSC26686 | -0.0739 | -1.21 | -0.25 | inactive
Jon65Ai | DRSC09731 | -6.09 | -0.0819 | 0.953 | inactive
Jon65Ai | DRSC24837 | 0.222 | -1.13 | -0.264 | inactive
JIL-1 | DRSC11200 | 0.664 | 1.3 | 0.152 | inactive
JIL-1 | DRSC40737 | -2.41 | -0.444 | -1.35 | inactive
hgo | DRSC03544 | -0.519 | -0.752 | -0.683 | inactive
Mer | DRSC20259 | -5.57 | -0.0658 | 0.13 | inactive
sim | DRSC17054 | 1.25 | -0.108 | -2.31 | inactive
sim | DRSC28753 | -0.466 | -1.61 | -0.804 | inactive
